Compound potency records, mixed from different reports. Data source: NIAID ChemDB in PubChem.

Shared fields: whole-cell or culture tests; species: Staphylococcus aureus

Two numbers with a dash give a range or band. Blank or dashed fields: not listed here. Zone: diameter of growth inhibition. A number after MIC or MFC names an inhibition level or a share of isolates. Neighbouring rows are from separate reports. ECn: concentration that inhibits the pathogen or its effect by n%.

structure	strain	endpoint	read by	tested at	result
NC1CCN(c2c(F)cc3c(=O)c(C(=O)O)cn(C4CC4)c3c2Cl)C1	10 strains (oxacillin-resistant)	MIC50			0.25 µg/mL
Cc1c(N2C[C@@H](F)[C@@H](C3(N)CC3)C2)c(F)c(N)c2c(=O)c(C(=O)O)cn([C@@H]3C[C@@H]3F)c12	25 strains (ofloxacin-resistant)	MIC50			0.06 µg/mL
CC1CN(c2c(Cl)cc3c(=O)c(C(=O)O)cn(C4CC4)c3c2F)CC(C)O1	1756	MIC			≤0.015 µg/mL
NC1CCN(c2nc3c(cc2F)c(=O)c(C(=O)O)cn3-c2ccc(F)cc2F)C1	24 strains (ofloxacin-susceptible)	MIC90			0.06 µg/mL
CO[C@H]1/C=C/O[C@@]2(C)Oc3c(C)c(O)c4c(O)c(c5c(c4c3C2=O)NC2(CCN(CC(C)C)CC2)N=5)=NC(=O)/C(C)=C\C=C\[C@H](C)[C@H](O)[C@@H](C)[C@@H](O)[C@@H](C)[C@H](OC(C)=O)[C@@H]1C	ATCC 29213	MIC			0.0313 µg/mL
CC(=O)CN1CCN(c2c(Cl)cc3c(=O)c(C(=O)O)cn(C4CC4)c3c2F)CC1	422	MIC			0.25 µg/mL
CO[C@H]1/C=C/O[C@@]2(C)Oc3c(C)c(O)c4c(O)c(c(/C=N/N5CCN(C)CC5)c(O)c4c3C2=O)NC(=O)/C(C)=C\C=C\[C@H](C)[C@H](O)[C@@H](C)[C@@H](O)[C@@H](C)[C@H](OC(C)=O)[C@@H]1C	SMITH	MIC			0.0078 µg/mL
CC(=O)CCN1CCN(c2c(Cl)cc3c(=O)c(C(=O)O)cn(C4CC4)c3c2F)CC1	422	MIC			0.25 µg/mL
CC(=O)NC[C@H]1CN(c2ccc(N3CCOCC3)c(F)c2)C(=O)O1	Oxacillin-susceptible	MIC50			1–4 µg/mL
COc1c(N2CCNC(C)C2)c(F)cc2c(=O)c(C(=O)O)cn(C3CC3)c12	25 strains (methicillin-susceptible)	MIC90			0.25 µg/mL
CC1CN(c2c(Cl)cc3c(=O)c(C(=O)O)cn(C4CC4)c3c2F)CCN1	133	MIC			0.25 µg/mL
COc1c(N2C[C@@H]3CCCN[C@@H]3C2)c(F)cc2c(=O)c(C(=O)O)cn(C3CC3)c12	25 strains (methicillin-susceptible)	MIC90			0.12 µg/mL
COc1cc2oc(=O)ccc2cc1CC(O)C(C)(C)O		zone	agar diffusion	250 µg/disc	10 mm
C[C@H]1COc2c(N3CCN(C)CC3)c(F)cc3c(=O)c(C(=O)O)cn1c23	24 strains (ofloxacin-susceptible)	MIC90			0.5 µg/mL
CN(C)[C@@H]1C(=O)C(C(N)=O)=C(O)[C@@]2(O)C(=O)C3=C(O)c4c(O)c(NC(=O)CNc5ccccc5)cc(F)c4C[C@H]3C[C@@H]12	101-29213	EC50	agar diffusion		2 µg/mL

A second listing of 2 rows from above:

structure	strain	endpoint	read by	tested at	result
NC1CCN(c2nc3c(cc2F)c(=O)c(C(=O)O)cn3-c2ccc(F)cc2F)C1	24 strains (ofloxacin-susceptible)	MIC90			0.06 µg/mL
COc1cc2oc(=O)ccc2cc1CC(O)C(C)(C)O		zone	agar diffusion	250 µg/disc	10 mm